Tested on: HIV-1IIIB virus
Assay: Anti-HIV activity: inhibition of HIV-1-induced cytopathic effect in MT-4 cells, MTT colorimetric assay
Format: cell-based
Settings: ratio of CC50 to EC50, MT-4 cells
Method: The effects of the test compounds in preventing cytopathic effects that occur because of HIV-1 replication were evaluated by MTT colorimetric assay. MT-4 cells suspended at 1 X 10^8 cells/ml were infected with 640 μL of HIV-1IIIB virus at 1.26 X10^8 TCID50/ml. After infection, 200 μl HIV-infected MT-4 cells (1 X10^5 cells/well) in growth media were added to each well. The plates were preincubated for 24 h at 37 °C to allow stabilization. Then, 50 μL of the test compounds (at a concentration of 4 mg/ml) were added to the first column of the well. With a multichannel pipette, 50 μL was transferred (in triplicate) from the wells labeled 1 to wells labeled 2. Such transfers were continued (serial dilution), moving from left to right, changing tips prior to mixing contents of the next column of wells. Finally, 50 μL was discarded from the wells in column 12. Different concentrations ([…]) of test compounds were prepared through serial dilution. Each dilution was tested in triplicates. The microtiter plates were incubated at 37 °C in a 5% CO2 incubator for 5 days. […] After 5 days of incubation, cell viability was determined by the MTT assay described. All compounds were assayed in triplicate.

Structure (SMILES): C[C@H](Cn1cnc2c(N)ncnc21)OCP(=O)(O)O [TDF, Tenofovir, reference compound]
- SI (selective index): 176.5

Source: publication PMC9202147, “In vitro anti-HIV and cytotoxic effects of pure compounds isolated from Croton macrostachyus Hochst. Ex Delile” (BMC Complementary Medicine and Therapies, 2022)
